{
  "source": "patent US20110118209A1",
  "about": "(priority 2006, published 2011)",
  "test_system": "Lewis Lung Carcinoma",
  "assay": "Response of s.c. Lewis lung carcinoma in mice",
  "conditions": "for T − C (tumor growth delay): to 750 mg; for Highest non-toxic dosage: IP",
  "key": {"[1]": {"conditions": "30 mg/kg/dose IP Day 2 Q5 min × 7"}},
  "data": [
    {"molecule": "NP(=O)(O)N(CCCl)CCCl", "values": [
      {"measurement": "Log kill total", "setting": "[1]", "result": 1.5, "unit": "log10"},
      {"measurement": "T − C (tumor growth delay)", "setting": "[1]", "result": 6.1, "unit": "days"},
      {"measurement": "Log kill total", "setting": "200 mg/kg IP Day 2 Single dose", "result": 1.2, "unit": "log10"},
      {"measurement": "T − C (tumor growth delay)", "setting": "200 mg/kg IP Day 2 Single dose", "result": 4.9, "unit": "days"},
      {"measurement": "Highest non-toxic dosage", "setting": "Day 2 Q5 min × 7", "result": 30, "unit": "mg kg^−1/dose"},
      {"measurement": "Highest non-toxic dosage", "setting": "Day 2 Single dose", "result": 200, "unit": "mg kg^−1/dose"}
    ]}
  ]
}
